The source of these data is ChEMBL document CHEMBL1157539, “Thousands of chemical starting points for antimalarial lead identification” (Nature, 2010).

The subject of the test is Plasmodium falciparum. Put plainly: GSK_TCMDC: Inhibition of Plasmodium falciparum 3D7 in whole erythrocytes, using parasite LDH activity as an index of growth.

Turning to `CCN1CCCC(OC(=O)C(O)(c2ccc3c(c2)OCO3)c2ccc3c(c2)OCO3)C1` (stereo unspecified), the XC50 came to 785 nM.
